Results of unrelated studies side by side (data: NIAID ChemDB).

Shared fields: growth or infection tests; agent: HIV-1; cells: CEM + CEM-SS; endpoint: EC50

Neighbouring rows are from separate reports. ECn: concentration that inhibits the pathogen or its effect by n%. An empty or dashed field is not shown.

compound,strain,changes,read by,value
CN1N=C(N)c2cn([C@@H]3O[C@H](COP(=O)(O)O)[C@@H](O)[C@H]3O)c3ncnc1c23,LAV,-,cytopathic effect / XTT,0.07 µM
Cc1occc1C(=S)Nc1ccc(Cl)c(C(=O)OC(C)C)c1,NL4-3,RT-V106A,cytopathic effect / XTT,0.6 µM
Cc1ccnc(SC(F)(F)c2nc3ccccc3o2)n1,OC(RT-L100I),RT-L100I,cytopathic effect / XTT,0.38 µM
COc1cc(-c2ccc(N=Nc3ccc4c(S(=O)(=O)O)cc(S(=O)(=O)O)c(N)c4c3O)c(OC)c2)ccc1N=Nc1ccc2c(S(=O)(=O)O)cc(S(=O)(=O)O)c(N)c2c1O,ED,-,RT activity,0.2 µM
C/C=C/CSc1cc(NC(=S)c2ccsc2C)ccc1Cl,NL4-3,RT-Y188C,p24,0.4 µM
Cc1occc1C(=S)Nc1ccc(Cl)c(C(=O)OCC2CC2)c1,4XAZT/Y181C (RT D67N K70R Y181C T215Y K219Q),RT-D67N K70R Y181C T215Y K219Q,cytopathic effect / XTT,0.11 µM
FC(F)(Sc1ncccn1)c1nc2ccccc2o1,IIIB,-,cytopathic effect / XTT,3.36 µM
CC(C)=CCOc1cc(NC(=S)c2ccoc2C)ccc1Cl,NL4-3 (RT K103N),RT-K103N,cytopathic effect / XTT,0.1 µM
CCCc1cc(=O)oc2c3c(c4c(c12)OC(C)(C)CC4)O[C@@H](C)[C@H](C)[C@@H]3O,NL4-3,RT-V179D,XTT,0.4 µM
C=CCOc1cc(NC(=S)c2sccc2C)ccc1Cl,RF,-,cytopathic effect / XTT,0.235 µM
CC(C)=CCOc1cc(NC(=S)c2ccsc2C)ccc1Cl,TIBO R82150-resistant (RT A98G V108I),RT-A98G V108I,cytopathic effect / XTT,0.2 µM
CC1=C(C(=O)Nc2ccc(Cl)c(C(=O)OC(C)C)c2)SCCO1,NL4-3,-,cytopathic effect / XTT,0.6 µM
CN(C)C1=C(C#N)/C(=C2/C(C#N)=C(N(C)C)N(c3ccc([N+](=O)[O-])cc3)c3c2n(C)c2ccccc32)c2c(c3ccccc3n2C)N1c1ccc([N+](=O)[O-])cc1,Diphenyl sulfone-resistant (RT-Y181I),RT-Y181I,cytopathic effect / XTT,0.5 µM
CCCc1cc(=O)oc2c3c(c4c(c12)OC(C)(C)CC4)O[C@H](C)[C@@H](C)[C@@H]3O,RF,-,cytopathic effect / XTT,0.27 µM
CC(C)OC(=S)Nc1ccc(Cl)c(/C=N/OC(C)(C)C)c1,IIIB,-,cytopathic effect / XTT,0.4 µM

A second listing of 2 rows from above:

compound | strain | changes | read by | value
Cc1occc1C(=S)Nc1ccc(Cl)c(C(=O)OC(C)C)c1 | NL4-3 | RT-V106A | cytopathic effect / XTT | 0.6 µM
Cc1ccnc(SC(F)(F)c2nc3ccccc3o2)n1 | OC(RT-L100I) | RT-L100I | cytopathic effect / XTT | 0.38 µM